How the values were obtained:
[1] = system: PA-I protein expression in PAO1; assay: PA-I (PA-IL) protein immunoblot in PAO1; assay type: cell-based, Pseudomonas aeruginosa; conditions: PAO1, 100 μM U-50,488, cell density 1.8 (OD600 nm)
[2] = system: pyocyanin (PCN) production in P. aeruginosa PAO1; assay: Pyocyanin assay, PAO1; assay type: cell-based, Pseudomonas aeruginosa
[3] = system: PA-I expression in P. aeruginosa; assay: In vitro PA-I expression in P. aeruginosa, summary statements; assay type: cell-based, Pseudomonas aeruginosa; conditions: strains PA27853 and PAO1
[4] = system: pyocyanin (PCN) production in P. aeruginosa 27853; assay: Pyocyanin assay, 27853; conditions: 27853, overnight in TSB, varying concentrations
PAO1 = assay: Biofilm formation assay, PAO1; conditions: PAO1, U-50,488 added at inoculation, overnight
[5] = system: PA-I promoter activity in reporter strain PA27853/PLL-EGFP; assay: Fluorescence of GFP-PA-I reporter strain PA27853/PLL-EGFP; conditions: opioid agonist 60 μM, HDMEM, up to 9 hours

For “trans-3,4-dichloro-N-methyl-N[2-(1-pyrolidinyl)cyclohexyl]benzeneacetamide methanesulfonate”, which PA-IL protein expression [1] is on record?
Its PA-IL protein expression is “increase in PA-IL protein expression”.

And the “onset of PCN production versus cell density” value ([2]; PAO1, TSB, 200 μM compound)?
The value was “shift in the production of PCN at lower cell densities”.

And the “colour of culture after overnight exposure” value ([2]; PAO1, TSB, 1 mM compound)?
The value was “intensely bright green color”.

And the “PCN production (OD520 nm)” value ([2]; PAO1, overnight in TSB, varying concentrations)?
Its value is “dose-dependent effect on PCN production”.

What about the “response to express PA-I” value [3] of the same substance?
The value was “robust response”.

What about the “PCN production (OD520 nm)” value [4] of the same substance?
The value was “dose-dependent effect on PCN production”.

What about the biofilm formation (PAO1) of the same substance?
Its biofilm formation is “enhanced biofilm formation”.

What about the “PA-I expression as judged by fluorescence of the GFP reporter strain” value [5] of the same substance?
The value was “Marked fluorescence”.

What about the “PA-I expression as judged by fluorescence of the GFP reporter strain” value ([5]; listed as U-50488) of the same substance?
Its value is “greatest effect on PA-I expression”.
